## RC index of single-base changes in HIV-1 RT

Protein: RT of HIV-1 NL4-3, numbered from its first residue.
Effects on overlapping genes or RNA elements are not listed.

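Random point mutant libraries of HIV-1 NL4-3, one for each of seven fragments, were passaged in CEM T lymphocytes. Sequencing gave the RC index: frequency after two rounds over frequency in the input plasmid.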

Values are the RC index; higher means better tolerated. The authors read about 0.1 or less as lethal, 0.1-0.2 as attenuated and 0.2 or more as tolerated. Substitutions are written as wild-type residue, site number, new residue. Nucleotide positions follow pNL4-3. An index over 1, which the authors read as above wild type, was rare (1.9% of all changes in the genome). Clones carried about five changes per kilobase, which can drag down the index of neutral changes.

S134C (base A2949T): 0.0140.
G141V (base G2971T): 0.152.
T286N (base C3406A): 0.0969.
K32E (base A2643G): 0.171.
Y232H (base T3243C): 0.0519.
W229L (base G3235T): 0.192.
K275R (base A3373G): 0.0184.
I522T (base T4114C): 0.0546.
K323E (base A3516G): 0.0370.
L452F (base A3905T): 0.0290.
K122N (base A2915T): 0.0561.
S191P (base T3120C): 0.0754.
D471E (base C3962A): 0.127.
I37N (base T2659A): 0.0950.
F61I (base T2730A): 0.0561.
I326K (base T3526A): 0.0271.
V559E (base T4225A): 0.0537.
N175Y (base A3072T): 0.0253.
W383C (base G3698C): 0.150.
K219N (base A3206T): 0.0386.
G285E (base G3403A): 0.329.
E89D (base A2816T): 0.0246.
Q340R (base A3568G): 0.0593.
Y342H (base T3573C): 0.0451.
S499P (base T4044C): 0.100.
Q487H (base G4010T): 0.0905.
D443G (base A3877G): 0.0267.
S553T (base G4207C): 0.0338.
K20R (base A2608G): 0.0348.
I2S (base T2554G): 0.141.
Q151H (base G3002T): 0.0996.
E233G (base A3247G): 0.0997.
P4L (base C2560T): 0.0596.
G333R (base G3546A): 0.500.
E378D (base A3683T): 0.0463.
L210S (base T3178C): 0.0468.
L517I (base T4098A): 0.0531.
V518D (base T4102A): 0.0628.
L425I (base T3822A): 0.0673.
L283P (base T3397C): 0.0492.
W229C (base G3236T): 0.0851.
P9T (base C2574A): 0.490.
E492G (base A4024G): 0.0707.
R463G (base A3936G): 0.0466.
E36G (base A2656G): 0.0599.
A129P (base G2934C): 0.0336.
Y115D (base T2892G): 0.0886.
S513C (base A4086T): 0.0225.

Source: Al-Mawsawi et al. 2014 (doi:10.1186/s12977-014-0124-6), supplementary data.